Results of unrelated studies side by side (data: NIAID ChemDB).

Shared fields: growth or infection tests; organism: Hepatitis B virus; measure: EC50

Conditions beyond the fields shown may differ between rows. An empty or dashed field is not shown. ECn: concentration that inhibits the pathogen or its effect by n%.

structure | strain | cells | read by | setting | result
Nc1ccn(CCOCCP(=O)(O)O)c(=O)n1 | - | HB611 | - | - | >400 µM
Nc1cc(SCCOCP(=O)(O)O)nc(N)n1 | - | HepAD38 | PCR | - | 1.8 µM
CCCOC(=O)[C@]1(C)CC[C@]2(C)CC[C@]3(C)C4=CC=C5C(=CC(=O)C(O)=C5C)[C@]4(C)CC[C@@]3(C)[C@@H]2C1 | - | HepG2 2.2.15 | ELISA / antigen | - | 25.4 µM
CCOC(=O)/C=C/c1ccc(O)cc1 | - | HepG2.2.15 | ELISA / antigen | - | 454 µM
Nc1ccn([C@@H]2CS[C@H](CO)O2)c(=O)n1 | - | HepAD38 | PCR | - | 0.02 µM
COc1cc(O)c2c(=O)c(O)c(-c3ccc(O)cc3)oc2c1 | - | HepG2.2.15 | ELISA / antigen | - | <32.67 µM
CC(C)=CC/C=C(/C)[C@H]1CC[C@]2(C)[C@@H]1[C@H](O)C[C@@H]1[C@@]3(C)CC[C@H](O)C(C)(C)[C@@H]3[C@@H](OC3OC(CO)C(O)C(O)C3O)C[C@]12C | - | HepG2.2.15 | PCR | 2 d | 4.299 µM
Cc1[nH]c(=S)nc2c1ncn2CCOCCP(=O)(O)O | - | HB611 | - | - | >400 µM
CNC(=O)[C@]1(C)CC[C@]2(C)CC[C@]3(C)C4=CC=C5C(=CC(=O)C(O)=C5C)[C@]4(C)CC[C@@]3(C)[C@@H]2C1 | - | HepG2 2.2.15 | ELISA / antigen | - | 18.4 µM
C[C@H](Cn1cnc2c(N)ncnc21)OCP(=O)(O)O | - | HepG2 2.2.15 | hybridisation | - | 1.5 µM
C[C@H](Cn1cnc2c(N)nc(N)nc21)OCP(=O)(O)O | - | HEPAD79 | PCR | - | 1 µM
CC(OCn1cnc2cnc(N)nc21)OCP(=O)(O)O | - | HB611 | - | - | 45 µM
Cc1cn([C@H]2O[C@@H](CO)[C@H](O)[C@H]2F)c(=O)[nH]c1=O | L526M | - | - | - | >100 µM
CC1=C(O)C(=O)C=C2C1=CC=C1[C@@]2(C)CC[C@@]2(C)[C@@H]3C[C@](C)(C(=O)N4CCCCC4)CC[C@]3(C)CC[C@]12C | - | HepG2 2.2.15 | ELISA / antigen | - | 33.1 µM
COc1ccc(Sc2nc(N)nc3c2ncn3CCOCP(=O)(OCC(F)(F)F)OCC(F)(F)F)cc1 | WILD TYPE | Huh7 | - | - | 0.027 µM
CC(=O)[C@]1(O)CC[C@@]2(O)[C@]1(C)[C@H](OC(=O)/C=C(\C)C(C)C)CC1[C@@]3(C)CC[C@H](OC(=O)/C=C/c4ccccc4)CC3=CC[C@]12O | - | HepG2.2.15 | ELISA | - | 48.33 µM
Nc1nc(N)c(C=O)c(OCCOCP(=O)(O)O)n1 | - | HEPAD79 | PCR | - | 9 µM
COc1cc2c(c(C)c1OC)CC=C1[C@@]2(C)CC[C@@]2(C)[C@@H]3C[C@](C)(CO)CC[C@]3(C)CC[C@]12C | - | HepG2 2.2.15 | ELISA / antigen | - | 68.4 µM
COc1cc(C2Oc3cc(O)cc(O)c3C(=O)C2OC2O[C@H](CO)[C@@H](O)[C@H](O)[C@H]2O)ccc1O | - | HepG2.2.15 | ELISA / antigen | - | 332 µM
C[C@H](Cn1cnc2c(N)ncnc21)OCP(=O)(O)O | - | HepAD38 | PCR | - | 0.17 µM
Nc1nc(N)c2ncn(C[C@@H](CO)OCP(=O)(O)O)c2n1 | - | HepG2 2.2.15 | hybridisation | - | 0.22 µM
COc1cc2oc(=O)ccc2cc1O | - | HepG2.2.15 | PCR | - | 762 µM
Nc1nc2c(ncn2CCC(CO)CO)c(=O)[nH]1 | WILD TYPE | HepG2 | - | - | 11.5 µM
Nc1nc2ncn(CC(CO)OCP(=O)(O)O)c2c(=O)[nH]1 | - | HB611 | - | - | >400 µM
Nc1ncnc2c1ncn2CCOCP(=O)(O)O | DUAL | - | - | - | 0.64 µM
Nc1nccc2c1ncn2C[C@@H](CO)OCP(=O)(O)O | - | HB611 | - | - | <16 µM
Nc1ncnc2c1ncn2CCOCP(=O)(O)O | - | HepAD38 | PCR | - | 0.07 µM
CC1=C(O)C(=O)C=C2C1=CC=C1[C@@]2(C)CC[C@@]2(C)[C@@H]3C[C@](C)(C(=O)OCc4ccccc4)CC[C@]3(C)CC[C@]12C | - | HepG2 2.2.15 | ELISA / antigen | - | 11.5 µM
CC(=O)[C@]1(O)CC[C@@]2(O)[C@]1(C)[C@H](OC(=O)/C=C(\C)C(C)C)CC1[C@@]3(C)CC[C@H](OC(=O)/C=C/c4cccc(F)c4F)CC3=CC[C@]12O | - | HepG2.2.15 | ELISA | - | >16.36 µM
C[C@H](COc1cc(N)nc(N)n1)OCP(=O)(O)O | - | HepAD38 | PCR | - | 4.3 µM
C[C@@]1(C(=O)O)CC[C@]2(C)CC[C@]3(C)C4=CC(c5c[nH]c6ccc(F)cc56)c5cc(O)c(O)cc5[C@]4(C)CC[C@@]3(C)[C@@H]2C1 | - | HepG2 2.2.15 | ELISA / antigen | - | 97.9 µM
CCOP(=O)(COCCn1cnc2c(=O)[nH]c(N)nc21)OCC | - | HB611 | - | - | 1.2 µM
CC1=C(O)C(=O)C=C2C1=CC=C1[C@@]2(C)CC[C@@]2(C)[C@@H]3C[C@](C)(C(=O)OCc4ccc(C)cc4)CC[C@]3(C)CC[C@]12C | - | HepG2 2.2.15 | ELISA / antigen | - | 10 µM
Nc1cc(OCCOCP(=O)(O)O)ncn1 | - | HepAD38 | PCR | - | 120 µM
CC1=C(O)C(=O)C=C2C1=CC=C1[C@@]2(C)CC[C@@]2(C)[C@@H]3C[C@](C)(C(=O)OCc4ccc([N+](=O)[O-])cc4)CC[C@]3(C)CC[C@]12C | - | HepG2 2.2.15 | ELISA / antigen | - | 15.1 µM
Nc1ncnc2c1ncn2CC(COCP(=O)(O)O)OCP(=O)(O)O | - | HB611 | - | - | 100 µM

Repeating the final 3 entries:

structure | strain | cells | read by | setting | result
Nc1cc(OCCOCP(=O)(O)O)ncn1 | - | HepAD38 | PCR | - | 120 µM
CC1=C(O)C(=O)C=C2C1=CC=C1[C@@]2(C)CC[C@@]2(C)[C@@H]3C[C@](C)(C(=O)OCc4ccc([N+](=O)[O-])cc4)CC[C@]3(C)CC[C@]12C | - | HepG2 2.2.15 | ELISA / antigen | - | 15.1 µM
Nc1ncnc2c1ncn2CC(COCP(=O)(O)O)OCP(=O)(O)O | - | HB611 | - | - | 100 µM